Series [1] addresses JUNV L protein (RNA-dependent RNA polymerase) (Junin virus (JUNV)) (UniProt Q6XQI4). Nature of the series: EMSA. Particulars: L:vRNA 1:1.2; 50 mM Tris-HCl pH 8.0, 500 mM NaCl, 10% ([…]; recombinant protein; residues 1-2210.
Series [2] deals with JUNV L protein (RNA-dependent RNA polymerase) + JUNV Z protein (matrix zinc-binding protein). The experiment in a line: EMSA. Particulars: L-Z complex; 50 mM Tris-HCl pH 8.0, 500 mM NaCl, 10% ([…]; recombinant protein. On the technique in general: Mobility shift assays separate free from complexed probe on a gel.

The exact form of at least one protein or probe is not confirmed. At least one verdict was read from the data and is not stated in words by the source.

Consider “GAUUCCUCCAUGCUCAAGUGCCGCCUAGGAUCCUCGGUGC [L-segment 3'-vRNA 40 nt]”, for which the binding result in series [1] and in series [2] was “binds” in each case.

The values above are taken from article PMC8257661.
